Source: patent publication US20230248000A1, “ANTIMICROBIAL COMPOUNDS AND METHODS OF USE” (Aequor, Inc., priority 2016, published 2023)

What was measured:
Type in all cases: cell-based, Staphylococcus aureus
[1] = system: S. aureus ATCC 25923; assay: Biofilm removal, MBEC Assay (ASTM E2799-12)
[2] = system: S. aureus ATCC 25923; assay: Minimum Inhibitory Concentration (MIC) on planktonic bacteria, CLSI M07-A9 modified for 96 well plates; details: lowest concentration inhibiting visible growth after overnight incubation
[3] = system: S. aureus ATCC 25923; assay: Biofilm prevention (inhibition), 96-well microplate assay

CCCCOP(N)(=O)OCCCC
Biofilm Removal [1]: 99.99% | MBEC Qualitative ([1]; microplate reader absorbance 630 nm, clear wells A630<0.1): 0.24% | MIC [2]: 1.0% | Biofilm Prevention [3]: 99.99%
